Measured values from several laboratories, pooled; numbers as filed in NIAID ChemDB.

Shared fields: whole-cell or culture tests; organism: Mycobacterium tuberculosis

Percent inhibition refers to the dose given; in toxicity tests it is the harm to the cells. MIC50, MIC90 and the like: level of inhibition, or share of isolates inhibited. MIC bound: limit read from a one-dose screen. ECn is the concentration giving n% inhibition of infection, replication or growth. Two numbers with a dash give a range or band. Blank or dashed fields: not listed here. Lines come from different laboratories, so protocols vary.

compound,endpoint,method,dose,strain or isolate,mutations,result
CC(C)OC(=O)c1cc[n+](CC(=O)c2ccccc2)cc1.[Br-],MIC,resazurin,-,-,MDR,2 µg/mL
C[C@@H]1CN(c2cc3c(cc2F)c(=O)c(C(=O)O)cn3C(C)(C)C)C[C@H](C)N1,MIC,-,-,H37Rv,-,0.39 µg/mL
CCCCCCc1ccc(NC(=O)c2cc(Br)cc(Br)c2O)cc1,MIC,-,-,My 331/88,-,32 µM
O=C1/C(=C/c2cccc(Br)c2)CCc2ccccc21,inhibition,broth dilution / resazurin,12.5 µg/mL,H37Rv,-,56%
COC1/C=C\C=C(/C)C(=O)Nc2cc3nc4ccc(Br)cc4oc-3c(c2=O)CC(C)CC(OC)C(O)C(C)/C=C(\C)C1OC(N)=O,MIC,-,-,EMB-R,-,12.5 µg/mL
O=C(CSc1nnc(-c2ccccn2)s1)N/N=c1/scc(-c2ccc(Br)cc2)n1-c1ccccc1,MIC,-,-,Clinical isolate 180,-,40 µg/mL
O=C1c2ccccc2C(=O)c2c1cccc2-n1nnc2cc(Cl)c(Cl)cc21,inhibition,BACTEC,12.5 µg/mL,H37Rv,-,8%
[N-]=[N+]=NCCCCCCCCN1C(=O)C(=O)c2cc(F)ccc21,MIC99,-,-,MC2 6230,-,164 µM
C(/C=C/c1ccccc1)=Nc1ccc(Cn2ccnc2)cc1,MIC,-,-,B814,-,32 µg/mL
CCCc1c(O)ccc(O)c1CO,MIC,resazurin,-,H37Rv,-,25 µg/mL
CCCc1cnc(C(=O)/C=C/c2ccccc2O)cn1,EC50,-,-,H37Rv,-,12.5 µg/mL
CO/C(C)=C1/NC(=O)[C@H]([C@@H](C)O)NC(=O)c2csc(n2)-c2cc(O)c(-c3nc(C(=O)NCCc4c[nH]cn4)cs3)nc2-c2csc(n2)[C@@H]2COC(=O)c3c4c5c(cccc5n3O)COC(=O)[C@@H](O[C@H]3C[C@](C)(O)[C@H](N(C)C)[C@H](C)O3)[C@@H](OC4)[C@H](NC(=O)c3csc1n3)c1nc(cs1)C(=O)N2,MIC,broth dilution,-,Clinical isolate 565,Multidrug-resistant,10–100 µM
CCCCCCCc1ccc(NC(=O)c2cc(Cl)ccc2O)cc1,MIC,-,-,My 331/88,-,4 µM
COc1cccc(/C=C2\CCCCCC2=O)c1,inhibition,broth dilution / resazurin,12.5 µg/mL,H37Rv,-,0%
ClCC1CCC(OC2CCC(CCl)CC2)CC1,MIC,-,-,-,-,>0.08 µg/mL
CN1CCN(Cc2ccc(NC/C=C/c3ccccc3)cc2)CC1,MIC,-,-,6425,-,>64 µg/mL
C[C@H]1[C@@H](c2ccccc2)OC(=O)N1C(=O)CNC(=O)OCc1ccccc1,inhibition,BACTEC,12.5 µg/mL,H37Rv,-,0%
CO/C(C)=C1/NC(=O)[C@H]([C@@H](C)O)NC(=O)c2csc(n2)-c2cc(OC)c(-c3nc(C(=O)NCCCN4CCOCC4)cs3)nc2-c2csc(n2)[C@@H]2COC(=O)c3c4c5c(cccc5n3O)COC(=O)[C@@H](O[C@H]3C[C@](C)(O)[C@H](N(C)C)[C@H](C)O3)[C@@H](OC4)[C@H](NC(=O)c3csc1n3)c1nc(cs1)C(=O)N2,MIC,broth dilution,-,H37Rv,-,≤1 µM
COc1cccc2c1C(=O)c1c(O)c3c(c(O)c1C2=O)C[C@@](O)(/C(C)=N/NC(=O)c1ccc(Cl)cc1)C[C@H]3O[C@H]1C[C@H](N)[C@H](O)[C@H](C)O1,MIC,-,-,PAS-R,-,6.3 µg/mL
O=C(CSc1nnc(-c2ccccn2)s1)N/N=c1/scc(-c2ccccc2)n1-c1ccc(Br)cc1,MIC,-,-,H37Rv,-,>80 µg/mL
[N-]=[N+]=NCCCCN1C(=O)C2(OCCO2)c2cc(F)ccc21,MIC99,-,-,MC2 6230,-,>327 µM
C(=C\c1ccccc1)/CNc1ccccc1Cn1ccnc1,MIC,-,-,B905,-,8 µg/mL
CC1CN(c2nc3c(cc2F)c(=O)c(C(=O)O)cn3C(C)(C)C)CCN1,MIC,-,-,H37Rv,-,0.78 µg/mL
C[C@@H]1[C@H](O)[C@@H](C)/C=C/C=C/CC/C=C/C=C/C=C/C=C/C(O[C@H]2O[C@H](C)[C@@H](O)[C@H](N)[C@@H]2O)CC2O[C@](O)(CC(O)C(O)CCC(O)CC(O)CC(O)CC(=O)O[C@H]1C)CC(O)C2C(=O)O,MIC bound,BACTEC,-,H37Rv,-,>12.8 µg/mL
COc1cc(O)c2c(=O)c3cc(OC)c(OC)cc3oc2c1,MIC,-,-,-,-,100 µg/mL
[O-]N(O)O.c1c(N2CCOCC2)ssc1=[N+]1CCOCC1,inhibition,BACTEC,12.5 µg/mL,H37Rv,-,0%
Cc1ccc2c(c1)C(=O)C(=O)N2CCCCCN=[N+]=[N-],MIC99,-,-,MC2 6230,-,184 µM
COc1c(N2CCNC(C)C2)c(F)cc2c(=O)c(C(=O)O)cn(C3CC3)c12,MIC,-,-,263 strains,-,2 µg/mL
CCCCc1cnc(C(=O)/C=C/c2ccccc2O)cn1,EC50,-,-,H37Rv,-,>12.5 µg/mL
CC(C)(C)c1ccc(NC(=O)c2cc(Cl)ccc2O)cc1,MIC,-,-,My 331/88,-,16 µM
C(=C\c1ccccc1)/CNc1ccc(CN2CCOCC2)cc1,MIC,-,-,6431,-,32 µg/mL
COc1cccc(/C=C2\Cc3ccccc3C2=O)c1,inhibition,broth dilution / resazurin,12.5 µg/mL,H37Rv,-,79%
O=[N+]([O-])c1ccc(/C=C/C(CCN2CCCCC2)=N/O)o1,MIC bound,BACTEC,-,H37Rv,-,>12.5 µg/mL
NNC(=O)c1ccncc1,MIC,broth dilution,-,Clinical isolate 10525,Rifampicin- and isoniazid-resistant,≤10 µM
O=c1c2c(OC3OC(CO)C(O)C(O)C3O)cc(O)cc2oc2c(O)ccc(O)c12,MIC,-,-,-,-,200 µg/mL
Cc1ccc2oc3c(ccc(=O)n3C)c(=O)c2c1,inhibition,BACTEC,12.5 µg/mL,H37Rv,-,0%
O=C(CSc1nnc(-c2ccccn2)s1)N/N=c1/scc(-c2ccccc2)n1-c1ccccc1Cl,MIC,-,-,Clinical isolate 180,-,40 µg/mL
CCCCc1ccc(NC(=O)c2cc(Br)cc(Br)c2O)cc1,MIC,-,-,My 331/88,-,16 µM
CCCCNC(=O)c1nc(-c2ccccc2)c(-c2ccccc2)nc1N,MIC bound,BACTEC,-,H37Rv,-,>12.5 µg/mL
O=C(CSc1nnc(-c2ccccn2)s1)N/N=c1/scc(-c2ccc([N+](=O)[O-])cc2)n1-c1ccccc1,MIC,-,-,Clinical isolate 180,-,>80 µg/mL
CC1CCCN(C(=S)S)C1.CC1CCCNC1,inhibition,BACTEC,12.5 µg/mL,H37Rv,-,99%
CCOC(=O)Nc1cc2c(c(N)n1)N=C(c1cc(OC)c(OC)c(OC)c1)CO2,EC50,-,-,H37Rv,-,>12.5 µg/mL
CCOC(=O)c1c(N)c(=O)oc2c3c(c(O)cc12)OCO3,inhibition,BACTEC,12.5 µg/mL,H37Rv,-,35%
CCOC(=O)Nc1cc(NC(C)C(O)Cc2ccccc2)c([N+](=O)[O-])c(N)n1,EC50,-,-,H37Rv,-,<12.5 µg/mL
OC1CCC(O)C(OC2CCCCC2)C1,MIC,-,-,-,-,0.25 µg/mL
CCCCc1cnc(C(=O)/C=C/c2ccc(N(C)C)cc2)cn1,EC50,-,-,H37Rv,-,>12.5 µg/mL
OC[C@@H](O)[C@@H](O)[C@H](O)c1cnc(C[C@H](O)[C@H](O)CO)cn1,MIC,BACTEC,-,H37Rv,-,≥12.5 µg/mL
[N-]=[N+]=NCCCCCN1C(=O)C(=O)c2ccccc21,MIC99,-,-,MC2 6230,-,>387 µM
COC1CCC(OC2CCCC(OC)C2)CC1,MIC,-,-,-,-,>0.17 µg/mL
CC(=O)Nc1ccc(S(=O)(=O)NNC(=O)C(=O)Nc2cccc(Cl)c2)cc1,MIC bound,BACTEC,-,H37Rv,-,>12.5 µg/mL
CO[C@H]1/C=C/O[C@@]2(C)Oc3c(C)c(O)c4c(O)c(c(/C=N/N5CCN(C)CC5)c(O)c4c3C2=O)NC(=O)/C(C)=C\C=C\[C@H](C)[C@H](O)[C@@H](C)[C@@H](O)[C@@H](C)[C@H](OC(C)=O)[C@@H]1C,MIC,broth dilution,-,Clinical isolate 565,Rifampicin- and isoniazid-resistant,≥10 µM
CCC1CN(c2c(F)cc3c(=O)c(C(=O)O)cn(C4CC4)c3c2OC)CCN1,MIC,-,-,H37Rv,-,0.1 µg/mL
CC(=O)Oc1ccccc1C(=O)Nc1ncc([N+](=O)[O-])s1,MIC,visual reading,-,LAM spoligotype 42,-,16 µg/mL
O=Nc1c(O)cc(Nc2cccnc2)c2ccccc12,MIC bound,BACTEC,-,H37Rv,-,>12.5 µg/mL
O=C1/C(=C/c2cccc(Br)c2)COc2ccccc21,EC50,broth dilution / resazurin,-,H37Rv,-,0.56 µg/mL
O=c1c2cc(O)c(O)cc2oc2cc(O)cc(O)c12,MIC,-,-,-,-,40 µg/mL
O=c1nc2n(CCN(CCO)CCO)c3cc(Cl)c(Cl)cc3nc-2c(=O)[nH]1,MIC bound,BACTEC,-,H37Rv,-,>6.25 µg/mL
COc1cc(O)c2c(=O)c3ccc(O)c(OC)c3oc2c1,MIC,-,-,-,-,100 µg/mL
Cn1c(=O)sc2cc(C(=S)N3CCN(c4ccccc4)CC3)ccc21,inhibition,BACTEC,6.25 µg/mL,H37Rv,-,-1%
COc1ccc(O)c2c(=O)c3c(O)cc(O)cc3oc12,MIC,-,-,-,-,200 µg/mL
CCOC(=O)CSc1nc2nc(Cl)c(Cl)nc2[nH]1,MIC bound,resazurin,-,H37Rv,-,>6.25 µg/mL
CCCCC(C)C(C)N(C)c1cc(NC(=O)OCC)nc(N)c1N,EC50,-,-,H37Rv,-,>12.5 µg/mL
NCC[C@H](O)C(=O)N[C@@H]1C[C@H](N)[C@@H](O[C@H]2O[C@H](CN)[C@@H](O)[C@H](O)[C@H]2O)[C@H](O)[C@H]1O[C@H]1O[C@H](CO)[C@@H](O)[C@H](N)[C@H]1O,MIC,broth dilution / resazurin,-,MDR20,-,1 µg/mL
CO[C@H]1/C=C/O[C@@]2(C)Oc3c(C)c(O)c4c(O)c(c(/C=N/N5CCN(C6CCCC6)CC5)c(O)c4c3C2=O)NC(=O)/C(C)=C\C=C\[C@H](C)[C@H](O)[C@@H](C)[C@@H](O)[C@@H](C)[C@H](OC(C)=O)[C@@H]1C,MIC,-,-,1033,-,0.16 µg/mL
[N-]=[N+]=NCCCCN1C(=O)C(=O)c2ccccc21,MIC99,-,-,MC2 6230,-,>410 µM
O=C(CN1CCN(CC(=O)c2ccc(Cl)cc2)CC1)c1ccc(Cl)cc1,inhibition,BACTEC,12.8 µg/mL,H37Rv,-,21%
C=C(NC(=O)c1csc(-c2nc3c(cc2O)-c2nc(cs2)C(=O)N[C@@H]([C@@H](C)O)C(=O)N/C(=C(\C)OC)c2nc(cs2)C(=O)N[C@@H]2c4nc(cs4)C(=O)N[C@@H](COC(=O)c4c5c6c(cccc6n4O)COC(=O)[C@@H](O[C@H]4C[C@](C)(O)[C@H](N(C)C)[C@H](C)O4)[C@H]2OC5)c2nc-3cs2)n1)C(N)=O,MIC,broth dilution,-,Clinical isolate 30034,-,≤2.5 µM
c1ccc(Oc2cccc3c2CCCN3)cc1,MIC,-,-,-,-,>0.05 µg/mL
O=c1c2c(O)cc(O)cc2oc2c(O)ccc(O)c12,MIC,-,-,-,-,100 µg/mL
CCOC(=O)Nc1cc2c(cn1)N=C(c1ccccc1)[C@H](C)N2,EC50,-,-,H37Rv,-,>12.5 µg/mL
C(=C\c1ccccc1)/CNc1cccc(Cn2ccnc2)c1,MIC,-,-,103471,-,>64 µg/mL
[N-]=[N+]=NCCN1C(=O)C2(OCCO2)c2cc(Cl)ccc21,MIC99,-,-,MC2 6230,-,>340 µM
CCOC(=O)Nc1cc(NCC(=O)c2ccc(OC)cc2)c([N+](=O)[O-])c(N)n1,EC50,-,-,H37Rv,-,>12.5 µg/mL
COc1ccc(CC2c3cc(OC)c(OC)c(OC)c3CC[N+]2(C)C)cc1Oc1ccc(CC2c3cc4c(c(OC)c3CC[N+]2(C)C)OCO4)cc1.[I-].[I-],MIC,BACTEC,-,H37Rv,-,≥12.5 µg/mL
Cc1ccccc1-n1c(-c2ccccc2)cs/c1=N/NC(=O)CSc1nnc(-c2ccccn2)s1,MIC,-,-,Clinical isolate 180,-,>80 µg/mL
CN1CCN(Cc2ccccc2NC/C=C/c2ccccc2)CC1,MIC,-,-,6431,-,32 µg/mL
CC(C)Cc1cnc(C(=O)/C=C/c2ccc(O)cc2)cn1,EC50,-,-,H37Rv,-,<12.5 µg/mL
COc1ccc2c(c1)n([O-])c1cc(C#N)ccc1[n+]2=O,MIC,-,-,EMB-R,-,12.5 µg/mL
CC1CN(c2c(F)cc3c(=O)c(C(=O)O)cn(C4CC4)c3c2Br)CCN1,MIC,-,-,H37Rv,-,0.78 µg/mL

The first 9 rows once more:

compound	endpoint	method	dose	strain or isolate	mutations	result
CC(C)OC(=O)c1cc[n+](CC(=O)c2ccccc2)cc1.[Br-]	MIC	resazurin	-	-	MDR	2 µg/mL
C[C@@H]1CN(c2cc3c(cc2F)c(=O)c(C(=O)O)cn3C(C)(C)C)C[C@H](C)N1	MIC	-	-	H37Rv	-	0.39 µg/mL
CCCCCCc1ccc(NC(=O)c2cc(Br)cc(Br)c2O)cc1	MIC	-	-	My 331/88	-	32 µM
O=C1/C(=C/c2cccc(Br)c2)CCc2ccccc21	inhibition	broth dilution / resazurin	12.5 µg/mL	H37Rv	-	56%
COC1/C=C\C=C(/C)C(=O)Nc2cc3nc4ccc(Br)cc4oc-3c(c2=O)CC(C)CC(OC)C(O)C(C)/C=C(\C)C1OC(N)=O	MIC	-	-	EMB-R	-	12.5 µg/mL
O=C(CSc1nnc(-c2ccccn2)s1)N/N=c1/scc(-c2ccc(Br)cc2)n1-c1ccccc1	MIC	-	-	Clinical isolate 180	-	40 µg/mL
O=C1c2ccccc2C(=O)c2c1cccc2-n1nnc2cc(Cl)c(Cl)cc21	inhibition	BACTEC	12.5 µg/mL	H37Rv	-	8%
[N-]=[N+]=NCCCCCCCCN1C(=O)C(=O)c2cc(F)ccc21	MIC99	-	-	MC2 6230	-	164 µM
C(/C=C/c1ccccc1)=Nc1ccc(Cn2ccnc2)cc1	MIC	-	-	B814	-	32 µg/mL